PSTVd loop 6 mutant pool in Nicotiana benthamiana

Reference: Wu et al. 2024, doi:10.1371/journal.ppat.1012142.

PSTVd intermediate strain, loop 6: wild type UGACCGCGAG, pool pattern UNNNCGNNNG; upper and lower strand joined, each 5' to 3', the first 5 letters being the upper strand, closing pairs included.

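Three N. benthamiana plants were inoculated with the whole mutant pool. Samples came from the inoculated region at 5 days, the leaf margin at 10 and upper systemic leaves at 12.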

Values are reads per thousand in the sample; higher means more abundant, 0 means not found. Each site shows the three plants. "Pool" is the share in the plasmid pool used as inoculum, on the same scale. The inoculated region was read from the minus strand, the other sites from the plus strand. Samples held 36,220 to 57,551 reads, so the smallest values rest on one or two reads.

sequence	pool	inoculated region	leaf margin	systemic leaves
UUUGCGAAAG	0.235	0.0869 0.126 0.0738	0.0552 0 0	0 0 0
UUUGCGAACG	0.183	0.104 0.0898 0.0922	0 0 0.0232	0 0 0
UUUGCGAAGG	0.0784	0.209 0.0898 0.0553	0 0 0	0 0 0
UUUGCGAAUG	0.222	0.122 0.0719 0.0369	0.0552 0 0	0 0 0
UUUGCGACAG	0.209	0.104 0.0539 0.0738	0 0 0	0 0 0
UUUGCGACCG	0.157	0.0695 0.0359 0.0922	0 0 0.0232	0 0 0
UUUGCGACGG	0.340	0.0869 0.0539 0.0553	0 0 0.0232	0 0 0
UUUGCGACUG	0.144	0.0521 0.198 0.0369	0 0 0	0 0 0
UUUGCGAGAG	0.222	0.156 0.0898 0.111	0 0 0.0232	0 0 0
UUUGCGAGCG	0.209	0.0521 0.0719 0.148	0 0 0	0 0 0
UUUGCGAGGG	0.196	0.0521 0.0359 0.111	0 0 0	0 0 0
UUUGCGAGUG	0.170	0.0869 0.0539 0.0553	0 0 0	0 0 0
UUUGCGAUAG	0.314	0.0521 0.0539 0.0184	0 0 0.0464	0 0 0
UUUGCGAUCG	0.222	0.0869 0.0359 0.0738	0 0 0.0232	0 0 0
UUUGCGAUGG	0.222	0.139 0.0359 0.0369	0 0 0	0 0 0
UUUGCGAUUG	0.288	0.0174 0.0719 0.166	0 0 0.0464	0 0 0.0205
UUUGCGCAAG	0.131	0.104 0.216 0.295	0 0 0.0696	0 0 0
UUUGCGCACG	0.118	0.104 0.0180 0.0922	0.0276 0 0.0232	0 0 0
UUUGCGCAGG	0.248	0.0869 0.0539 0.148	0 0 0	0 0 0
UUUGCGCAUG	0.222	0.139 0.0898 0.166	0 0 0	0 0 0
UUUGCGCCAG	0.0784	0.104 0.0898 0.0738	0 0 0	0 0 0
UUUGCGCCCG	0.261	0.104 0.0539 0.0922	0 0 0.0464	0 0 0
UUUGCGCCGG	0.209	0.0869 0.0719 0.0738	0 0 0	0 0 0
UUUGCGCCUG	0.222	0.104 0.0898 0.148	0.0276 0 0	0 0 0.0205
UUUGCGCGAG	0.144	0.104 0.144 0.0553	0.138 0 0	0.0180 0.0202 0.697
UUUGCGCGCG	0.261	0.0695 0.0898 0.0922	0.0276 0 0.0232	0 0 0
UUUGCGCGGG	0.170	0.209 0.0539 0.0553	0 0 0.0232	0 0 0
UUUGCGCGUG	0.157	0.0869 0.0539 0.0738	0 0 0.0464	0 0 0
UUUGCGCUAG	0.118	0.0695 0.0359 0.0369	0 0 0.0464	0 0 0
UUUGCGCUCG	0.209	0.104 0.0359 0.0738	0 0 0.0232	0 0 0
UUUGCGCUGG	0.118	0.0695 0.0359 0.0553	0 0 0.0232	0 0 0
UUUGCGCUUG	0.314	0.0869 0.0719 0.0922	0.0276 0 0	0 0 0
UUUGCGGAAG	0.170	0.0869 0.0898 0.0369	0 0 0	0 0 0
UUUGCGGACG	0.183	0.122 0.144 0.111	0 0 0	0 0 0
UUUGCGGAGG	0.131	0.122 0.0539 0.0369	0.0552 0 0	0 0 0
UUUGCGGAUG	0.157	0.0521 0.0539 0.0738	0.0552 0 0	0 0 0
UUUGCGGCAG	0.235	0.122 0.0719 0.129	0 0 0.0232	0 0 0
UUUGCGGCCG	0.144	0.122 0.0539 0.111	0.0276 0 0	0 0 0
UUUGCGGCGG	0.118	0.0869 0.0719 0.0369	0 0 0.0232	0 0 0
UUUGCGGCUG	0.209	0.191 0.0898 0.0553	0 0 0	0 0 0
UUUGCGGGAG	0.144	0.243 0.144 0.0553	0 0 0	0 0 0
UUUGCGGGCG	0.131	0.104 0.0180 0.0922	0 0 0	0 0 0
UUUGCGGGGG	0.157	0.0869 0.0719 0.0369	0 0 0	0 0 0
UUUGCGGGUG	0.196	0.0695 0.108 0.0553	0 0 0	0 0 0
UUUGCGGUAG	0.235	0.104 0.0719 0.148	0 0 0	0 0 0
UUUGCGGUCG	0.196	0.191 0.0898 0.111	0 0 0	0 0 0
UUUGCGGUGG	0.248	0.0869 0.126 0.148	0 0 0	0 0 0
UUUGCGGUUG	0.235	0.104 0.126 0.0922	0 0 0.0464	0 0 0
UUUGCGUAAG	0.131	0.156 0.0539 0.0738	0 0 0	0 0 0
UUUGCGUACG	0.170	0.0521 0.108 0.148	0 0 0	0 0 0.0205
UUUGCGUAGG	0.170	0.139 0.0359 0.0738	0 0 0	0 0 0
UUUGCGUAUG	0.314	0.261 0.0719 0.0738	0.497 0 0	0 0 0
UUUGCGUCAG	0.235	0.104 0.0719 0.0922	0.0276 0 0	0 0 0
UUUGCGUCCG	0.248	0.139 0.0539 0.0369	0 0 0.0232	0 0 0
UUUGCGUCGG	0.157	0.0521 0.108 0.0738	0.0276 0 0	0 0 0.0205
UUUGCGUCUG	0.248	0.0348 0.108 0.0369	0 0 0	0 0 0
UUUGCGUGAG	0.196	0.0348 0.180 0.129	0.0276 0 0.0232	0 0 0
UUUGCGUGCG	0.235	0.139 0.0539 0.0553	0 0 0	0 0 0.0205
UUUGCGUGGG	0.261	0.156 0.126 0.0738	0 0 0.0232	0 0 0
UUUGCGUGUG	0.144	0.104 0.108 0.0369	0 0 0	0 0 0
UUUGCGUUAG	0.458	0.0521 0.0898 0.0738	0 0 0	0 0 0

Wild type was 20.7 per thousand in the pool and the most common sequence in every sample (inoculated region 195, 198, 203; leaf margin 629, 591, 734; systemic leaves 942, 870, 868). Sequences that differ at fixed positions probably stem from PCR or sequencing errors, and defective variants can be carried along by functional ones.